In ChEMBL document CHEMBL1671631, “Staphylococcus aureus PBP4 is essential for beta-lactam resistance in community-acquired methicillin-resistant strains” (2008):

Test system: Staphylococcus aureus
Assay: Antimicrobial activity against community-acquired pbp3-deficient Staphylococcus aureus MW2 ex serotype USA400 by microdilution method
Type: functional
Procedure, shortened: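 Broth microdilution MIC per CLSI guidelines, inoculum 5 x 10^5 CFU/ml, confirmed by plating serial dilutions. Run in triplicate; three independent clones per mutant. Reported as the median of at least three independent experiments. MBC: clear wells plated onto drug-free tryptic soy agar, 37°C, 24 and 48 h. pEPSA5-carrying strains tested with and without xylose, no chloramphenicol.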

How did the MIC turn out when `Cc1onc(-c2ccccc2)c1C(=O)N[C@@H]1C(=O)N2[C@@H]1SC(C)(C)[C@@H]2C(=O)O` [OXACILLIN] was run?
The MIC was 128 µg/mL (≈ 319 µM).

Values after ≈ are worked out from the molar mass of the structure shown.
